Assay: Quantification of erucamide in Arabidopsis leaves (GC-MS/MS)

## CCCCCCCC/C=C\CCCCCCCCCCCC(N)=O (single isomer, unassigned) [Compound T3SI-1, erucamide]
Col-0
  concentration of erucamide in leaves: about 2.6 g/g
FAAH overexpression plants
  concentration of erucamide in leaves: about 1.6 mg/g
